# According to the supplement of paper PMC4206461:
# The entries are a selection whose mix differs from that of the whole data set.
# Test system: Pseudomonas aeruginosa PA14 dppA1-A5 penta mutant + pBBR5.DppA1 (PA14_58350)
# Test: respiration area under curve with compound as sole nitrogen source, 24 h (OmniLog AUC (arbitrary units)); higher = more respiration / better utilisation as nitrogen source, active = 2000 or more
# Details: plate: PM8
# Method: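 Biolog Phenotype MicroArray plates PM6-PM8: each di/tripeptide is the sole nitrogen source. Tetrazolium reduction was read in the OmniLog for 24 h at 37°C and summarised as area under the respiration curve (arbitrary units). Values below 2000 count as no respiration. Strain is the SBP penta mutant complemented with DppA1 on a plasmid under its native promoter. Lys/His/Cys peptides are excluded.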
row,Structure (SMILES),respiration area under curve
1,CC(C)C[C@H](N)C(=O)N[C@@H](Cc1ccc(O)cc1)C(=O)O,active: 7460
